A mixed list of measured activities; the numbers were collected in NIAID ChemDB.

Common to all: whole-cell or culture tests; organism: HIV-1

ECn: concentration that inhibits the pathogen or its effect by n%. a–b is a range or a potency band. Blank or dashed fields: not listed here. Lines come from different laboratories, so protocols vary.

SMILES	setting	read-out	mutations	cell line	method	strain	result
COc1ccc(CN[C@@H](C(=O)N[C@H](C(=O)NCc2nc3ccccc3[nH]2)C(C)C)[C@H](O)[C@H](Cc2ccccc2)NC(=O)[C@@H](NC(=O)OCc2ccccc2)C(C)(C)C)cc1	-	EC50	-	MT-4	p24	RF	0.023 µM
O=c1[nH]c(=O)n([C@H]2C[C@H](F)[C@@H](CO)O2)cc1Cl	-	EC50	-	MT-4	cytopathic effect	IIIB	0.7 µM
CCCCCCCCCCCCCCCCOCCCOP(=O)(O)COCCn1cc(F)c(N)nc1=O	-	EC50	-	MT-2	p24	LAI	0.14 µM
Cc1cn([C@H]2C[C@H](N=[N+]=[N-])[C@@H](CO)O2)c(=O)[nH]c1=O	-	EC50	-	HT4LACZ-1 + HT4 LacZ-1	-	HX	0.024 µM
Cc1ccnc2c1NC(=O)c1cccnc1N2C1CC1	-	EC50	RT-A98G K103R	PBMC	-	MVP5180 (RT A98G K103R)	0.66 µM
CCCc1nnc(C[C@H](C[C@H](O)CN2CCN(C(C)(C)c3ncc(-c4ccc(Cl)cc4)o3)C[C@H]2C(=O)NCC(F)(F)F)C(=O)N[C@H]2c3ccccc3OC[C@H]2O)o1	-	EC95	PR-L10I M36I N37D M46I R57K L63P A71V G73S I84V L90M I93L	MT-4	p24	V-18 Clinical isolate	0.063 µM
Cc1ccnc2c1NC(=O)c1cccnc1N2C1CC1	-	EC50	-	TZM-bl	luciferase	IIIB	0.014 µM
Cn1ncc2c1S(=O)(=O)N(CCc1ccccc1)C(=O)N2CCc1cccc(C#N)c1	-	EC50	-	MT-4	MTT	IIIB	>307.1 µM
Cc1cn([C@H]2C=C[C@@H](CO)O2)c(=O)[nH]c1=O	-	EC50	-	MT-2	cytopathic effect / MTT	IIIB	1.8 µM
O=C(Nc1ncc[nH]1)c1cccc(CN2C(=O)N(Cc3ccccc3)[C@H](Cc3ccccc3)[C@H](O)[C@@H](O)[C@H]2Cc2ccccc2)c1	-	EC50	-	MT-2	-	RF	<0.021 µM
O=C1OC(C(Cl)c2ccccc2F)c2ccccc21	-	EC50	-	TZM-bl	luciferase	IIIB	2 µM
CC[C@H](C)[C@H](NC(=O)[C@@H]1CCCN1C[C@H](O)[C@H](Cc1ccccc1)NC(=O)[C@H](CC(N)=O)NC(=O)[C@H](CC(C)C)NC(=O)[C@H](CO)NC(C)=O)C(=O)N[C@H](C(=O)OC)C(C)C	4 d	EC50	-	CBMC(PHA) + CBMC	RT activity	TC354	>10 µM
Cc1ccc([C@]2(CCl)OC(=O)c3ccccc32)cc1	-	EC50	-	TZM-bl	luciferase	IIIB	1.4 µM
CC[C@H](C)[C@@H]1NC(=O)[C@@H](NC[C@@H](O)[C@H](Cc2ccccc2)NC(=O)[C@@H](NC(=O)c2ccc3ccccc3n2)C(C)C)Cc2ccc(cc2)OCCCNC1=O	4 d	EC50	-	CBMC(PHA) + CBMC	RT activity	TC354	0.1 µM
COc1cncc(-c2cnc(C(C)(C)N3CCN(C[C@@H](O)C[C@@H](Cc4nnc(-c5ccccc5)o4)C(=O)N[C@H]4c5ccccc5OC[C@H]4O)[C@H](C(=O)NCC(F)(F)F)C3)o2)c1	-	EC95	PR-L10I M36I N37D M46I R57K L63P A71V G73S I84V L90M I93L	MT-4	p24	V-18 Clinical isolate	>1 µM
O=C1N(Cc2ccc(CO)cc2)[C@H](Cc2ccccc2)[C@H](O)[C@@H](O)[C@@H](Cc2ccccc2)N1Cc1ccc(CO)cc1	-	EC50	PR-V82T	MT-4	p24	NL4-3	<0.1 µM
Cc1cccc(C)c1OCC(=O)N[C@@H](Cc1ccccc1)[C@@H](O)C[C@H](Cc1ccccc1)NC(=O)[C@H](C(C)C)N1CCCNC1=O	-	EC50	-	HEK 293 + 293T	luciferase	NL4-3	0.007 µM
Nc1nc2c(ncn2CCOCP(=O)(O)O)c(=O)[nH]1	-	EC50	-	MT-2	p24	LAI	0.13 µM
Cc1cn([C@H]2C[C@H](N=[N+]=[N-])[C@@H](CO)O2)c(=O)[nH]c1=O	-	EC50	-	PBMC	RT activity	LAI Laboratory isolate	0.004 µM
CC(C)Nc1cccnc1N1CCN(C(=O)c2cc3cc(NS(C)(=O)=O)ccc3[nH]2)CC1	-	EC50	-	MT-4	cytopathic effect / MTS	IIIB	0.018 µM
CSCSc1nc(Cc2cc(C)cc(C)c2)c(C(C)C)c(=O)[nH]1	-	EC50	-	PBMC	p24	IIIB	0.01 µM
CC(C)=CCN1Cc2cc(Cl)cc3[nH]c(=S)n(c23)C[C@@H]1C	-	EC50	RT-A98G K103R	PBMC	-	BCF11	>6.25 µM
Nc1ncnc2c1ncn2CCOCP(=O)(O)O	-	EC50	-	MT-4	cytopathic effect / trypan blue	-	2 µM
COc1cc(O)c2c(=O)oc3cc(O)cc(C)c3c2c1	pseudotyped	EC50	-	SupT1	luciferase	NL4-3	30.9 µM
CC(=O)OCOP(=O)(OCOC(C)=O)C(=O)Oc1ccccc1	-	EC50	-	H9	thymidine uptake	-	>30 µM
CC(=O)O[C@H]1C[C@@]2(C)[C@@H](C[C@@H](O)[C@H]3[C@@]4(C)CC[C@@H](O)[C@@H](C)[C@@H]4CC[C@@]32C)/C1=C(\CCC=C(C)C)C(=O)O	-	EC50	-	MT-4	cytopathic effect / trypan blue	-	>20 µM
Cc1nnc(C[C@H](C[C@H](O)CN2CCN(C(C)(C)c3ncc(-c4ccc(Cl)cc4)o3)C[C@H]2C(=O)NCC(F)(F)F)C(=O)N[C@H]2c3ccccc3OC[C@H]2O)o1	-	EC50	PR-L10I M36I N37D M46I R57K L63P A71V G73S I84V L90M I93L	MT-4	p24	V-18 Clinical isolate	<0.063 µM
Cc1cc(-c2ccc(N=Nc3ccc4c(S(=O)(=O)O)cc(S(=O)(=O)O)c(N)c4c3O)c(C)c2)ccc1N=Nc1ccc2c(S(=O)(=O)O)cc(S(=O)(=O)O)c(N)c2c1O	-	EC50	-	MT-4	cytopathic effect / trypan blue	-	1.5 µM
CCCCCCCCCCCCCCCCCCOCCOP(=O)(O)COCCn1cnc2c(N)ncnc21	-	EC50	-	MT-2	p24	LAI	0.00002 µM
O=c1[nH]cnc2c1ncn2[C@H]1CC[C@@H](CO)O1	-	EC50	-	MT-2	cytopathic effect / MTT	IIIB	12 µM
Cc1ccnc2c1NC(=O)c1cccnc1N2C1CC1	-	EC50	-	MT-4	MTT	IIIB	0.03 µM
CC(C)[C@H](NC(=O)OCc1ccccc1)C(=O)N[C@@H](Cc1ccccc1)[C@@H](O)[C@H](O)[C@H](Cc1ccccc1)NC(=O)[C@@H](NC(=O)OCc1ccccc1)C(C)C	-	EC50	-	MT-2	-	RF	<0.195 µM
COc1cncc(-c2cnc(C(C)(C)N3CCN(C[C@@H](O)C[C@@H](Cc4nnc(C)o4)C(=O)N[C@H]4c5ccccc5OC[C@H]4O)[C@H](C(=O)NCC(F)(F)F)C3)o2)c1	-	EC95	PR-L10I N37S R41K M46I I54V I62V L63P A71V V77I V82A L90M I93L	MT-4	p24	Q-60 Clinical isolate	>1 µM
O=C(Nc1ncc[nH]1)c1cccc(CN2C(=O)N(CC3CC3)[C@H](Cc3ccccc3)[C@H](O)[C@@H](O)[C@H]2Cc2ccccc2)c1	-	EC50	-	MT-2	-	RF	<0.028 µM
Cc1cn([C@H]2C[C@H](N=[N+]=[N-])[C@@H](CO)O2)c(=O)[nH]c1=O	-	EC50	-	PM1	MTT	NLAD8	0.086 µM
COC(=O)C1C(=O)N(O)C(=O)c2ccccc21	-	EC50	-	MT-4	MTT	IIIB	13.44 µM
CC(C)CN(C[C@@H](O)[C@H](Cc1ccccc1)NC(=O)[C@H](CC(N)=O)NC(=O)c1ccc2ccccc2n1)C(=O)NC(C)(C)C	-	EC50	PR-L10R M46I L63P	MT-4	p24	NL4-3	<0.2 µM
CCC(Cl)C1(c2ccc(F)cc2)OC(=O)c2ccc(C)cc21	-	EC50	-	TZM-bl	luciferase	IIIB	126 µM
Nc1ccn([C@H]2CC[C@@H](CO)O2)c(=O)n1	-	EC50	-	HT4LACZ-1 + HT4 LacZ-1	-	HX	0.8 µM
CC(C)(c1ncc(-c2ccc(F)cc2)o1)N1CCN(C[C@@H](O)C[C@@H](Cc2nnc(-c3ccccc3)o2)C(=O)N[C@H]2c3ccccc3OC[C@H]2O)[C@H](C(=O)NCC(F)(F)F)C1	-	EC95	PR-L10I M36I N37D M46I R57K L63P A71V G73S I84V L90M I93L	MT-4	p24	V-18 Clinical isolate	0.063 µM
O=c1[nH]c(=O)n(C[C@@H](CO)OCP(=O)(O)O)cc1F	-	EC50	-	MT-2	p24	LAI	>100 µM
CC[C@H](C)[C@H](NC(=O)[C@@H]1CCCN1C[C@@H](O)[C@H](Cc1ccccc1)NC(=O)[C@H](CC(N)=O)NC(=O)[C@H](CC(C)C)NC(C)=O)C(=O)N[C@H](C(N)=O)C(C)C	4 d	EC50	-	CBMC(PHA) + CBMC	RT activity	TC354	>10 µM
FCC1CO1	-	EC50	-	CEM	-	-	0.05–100 µM
O=C(Nc1nc2ccccc2[nH]1)c1cccc(CN2C(=O)N(CC3CC3)[C@H](Cc3ccccc3)[C@H](O)[C@@H](O)[C@H]2Cc2ccccc2)c1	-	EC50	-	MT-2	-	RF	<0.017 µM
O=C1O[C@](CCl)(c2ccc(F)cc2)c2ccccc21	-	EC50	-	TZM-bl	luciferase	IIIB	13.5 µM
Cc1cn([C@H]2C[C@H](N=[N+]=[N-])[C@@H](CO)O2)c(=O)[nH]c1=O	-	EC50	RT-A98G K103R	PBMC	-	MVP5180 (RT A98G K103R)	<0.01 µM
Cn1ncc2c1S(=O)(=O)N(CCc1ccc(Cl)cc1Cl)C(=O)N2CCc1ccc(Cl)cc1Cl	-	EC50	-	MT-4	MTT	IIIB	>253 µM
c1ccc([C@H]2CN3CCSC3=N2)cc1	-	EC50	-	H9	XTT / p24	IIIB	0.1 µM
Cn1ncc2c1S(=O)(=O)N(CCc1ccc(Br)cc1)C(=O)N2CCc1ccc(Br)cc1	-	EC50	-	MT-4	MTT	IIIB	>151.2 µM
CCCCCCCCCCCCCCCCOCCCOP(=O)(O)COCCn1cnc2c(N)nc(N)nc21	-	EC50	-	MT-2	p24	LAI	0.000016 µM
O=c1[nH]cnc2c1ncn2[C@H]1CC[C@@H](CO)O1	-	EC50	-	MT-4	cytopathic effect / MTT	IIIB WT	1.9 µM
COc1ccc(COCC(COCc2ccccc2)OCSc2ccccc2)cc1	-	EC50	-	CEM	-	-	0.05–100 µM
CCCCCCCCCCCCCCCCOCCCOP(=O)(O)COCCn1cc(Br)c(N)nc1=O	-	EC50	-	MT-2	p24	LAI	31 µM
Cc1cn(COC(CO)CN=[N+]=[N-])c(=O)[nH]c1=O	-	EC50	-	CEM	-	-	0.05–100 µM
Nc1ccn([C@H]2CC[C@@H](CO)O2)c(=O)n1	-	EC50	-	MT-4	cytopathic effect / trypan blue	-	0.6 µM
CCCc1nnc(C[C@H](C[C@H](O)CN2CCN(C(C)(C)c3ncc(-c4cncc(OC)c4)o3)C[C@H]2C(=O)NCC(F)(F)F)C(=O)N[C@H]2c3ccccc3OC[C@H]2O)o1	-	EC95	PR-L10I M46I I54V Q58E L63P I64V V77I V82F I84V L90M I93L	MT-4	p24	K-60 Clinical isolate	0.5 µM